Human monoclonal antibodies against the spike receptor-binding domain (heavy:light variable regions). IC50 against pseudoviruses bearing the spike of naturally observed variants; lower = stronger; >10 µg/ml means not reached at the top dose. No active / inactive call. The stated detection limit is 0.0005 µg/ml; values near or below 0.001 µg/ml lie at the floor of the assay.
B1: BD58-0561 (protein)
chain 1: EVQLVESGGGLVQPGGSLRLSCAASGFRFSSYDMHWVRQATGQGLEWVSVIGHGGDTYYAGSVRGRFTISRENAKNSVYLQMNSLRAGDTAVYYCARSPPPLDYGDHFIDYWGQGTLVTVSS
chain 2: QSVLTQPPSASGTPGQRVTISCSGSSSNIGSHYVYWYQQLPGTAPKLLIYRNNQRPSGVPDRFSGSKSGTSASLAISGPRSEDEAEYYCATWDASLWVFGTGTKVTVL
B2: BD58-0534 (protein)
chain 1: EVQLVESGGGVVRPGGSLRLSCAASGFTFDDHGMSWVRQAPGKGLEWVSGINWNGDSTAYADSVKGRFTISRDNTKNSLYLQMNSLRAEDTALYHCARGYYYDSTGYPHPGYYGMDVWGQGTTVTVSS
chain 2: SYELTQPPSVSVSPGQTARITCSGDALPNQYSYWYQQKPGQAPVVLIYKDSERPSGIPERFSGSSSGTTVTLTISGVQAEDEADYYCQSADSSGTIGVFGGGTKLTVL
B3: BD56-1183 (protein)
chain 1: EVQLLESGGGLVQPGGSLRLSCAASGFTFSSSAMSWVRQAPGKGLEWVSAIKGSGGSTYYADSVKGRFTISRDNSKNTLYLQMSSLRAEDTAVYYCARLDILTGYFGPWGQGTLVTVSS
chain 2: NFMLTQPHSVSESPGKTVTISCTGSSGSIAINYVQWYQQRPGSAPTTVIYEDNQRPSGVPDRFSGSIDSSSNSASLTISGLKTEDEADYYCQSYDSSNLWVFGGGTKLTVL
B4: BD58-0521 (protein)
chain 1: EVQLVQSGSVVKKPGESLKISCQGSGYNFNDDWIGWVRQTPGKGLEWVGMIYPDDSDTRYNPSFLGQVTLSVDKSISTAHLHWSSLKTSDTAKYFCARHGVVDRETHSLPDFWGPGTLVTVSS
chain 2: EVVMTQSPATLSVSPGERATLSCRASQNVNSRLAWFQQRPGQAPRLLIYGASTRATGVPVRFTGSGSGTEFTLTIDGLQSEDYAFYFCLQYLHWRTFGPGTKVEV
B5: BD56-285 (protein)
chain 1: QVQLVQSGAEVKKPGASVKVSCKASGYTFTSYGISWVRQAPGQGLEWMGWISASNGNTKYAQKLQGRVTMTTDTPTSTAYMELRSLRSDDTAVYYCAREIWGIVVVPAAMTGLNWFDPWGQGTLVTVSS
chain 2: QSVLTQPPSVSGAPGQRVTISCTGSSSNIGASYDVHWYQQLPGTAPKLLIYGNSNRPSGVPDRFSGSKSGTSASLAITGLQAEDEADYYCQSYDNSLSGPVVFGGGTKLTVL
B6: BD58-0551 (protein)
chain 1: EVQLVESGGGLVRPGGSLRLSCAASGFTFSSYSMNWVRQAPGKGLEWVSSITSTSSYIFHADSVKGRFTLSRDNAKNSMYLQMNNLRAEDTAVYYCARGPYYDFWSSYRNIDYWGQGILVTVSS
chain 2: DIQMTQSPSTVSASVGDRVTITCRASQGISNWLAWYQQKPGKAPKLLIYAASRLQSGVPSRFSGSGSGADFTLTISSLQPEDFAIYYCQQTNSFPLTFGGGTRVEIK
B7: BD58-0512 (protein)
chain 1: QVQLQESGPGLVKPSETLSLTCTVSGDSFSNYYWSWIRQPAGKGLEWIGRIYTSGSTNYNPSLKSRVTMSIDTSKNQFSLRLRSVTAADTAVYYCARVGVATDYWGQGTLVTVSS
chain 2: DIQMTQSPSTLSAFVGDRVTITCRASQSISTWLAWYQQKPGKVPKLLIYKASSLESGVPSRFSGTGSGTEFTLTISSLQPDDFATYYCQQYNSYSETFGQGTKVEIK
B8: BD58-0569 (protein)
chain 1: QVQLVQSGAEVKKPGASVKVSCKLSGYTLTELSMHWVRQTPGKGLEWMGGFDPAEDKTVYAQKFQGRVTMTEDTSADTAYMELSSLRSEDTAVYYCATGVPAVIFRFDPWGQGTQVIVSS
chain 2: QPVLTQPPSASASLGASVTLTCTLSSGYNNYKVDWYQQRPGKGPRFVMRVGTGGIVGSKGDGIPDRFSVLGSGLNRYLTIKNIQEEDESDYHCGTDHGTGSDFVVVFGGGTKLTVL
B9: BD58-0518 (protein)
chain 1: QLQLQESGPGLVKPSQTLSLTCTVSGGSISSGGYYWSWIRQHPGKGLEWIGYIHYSGSTYYNPSLKSRVTISVDTSKNHFSLKLSSVTAADTAVYYCAREISTMVRGEPNDAFDIWGQGTMVTVSS
chain 2: QSALTQPASVSGSPGQSITISCTGTSSDVGTYNLVSWYQQFPGKAPKLMIYEVSERPSGISNRFSGSKSGTTASLTISGLQAEDEADYYCCSYATGRLFGGGTKLTVL
B10: BD58-0555 (protein)
chain 1: EVQLVKSGGGLIQPGGSLRLSCAASGLIVSRNYMSWVRQAPGKGLEWVSVIYSGGSTYYADSVEGRFTVSRDNSKNRLYLEMNSLRAEDTAVYYCARDRPAGLMDVWGQGTTVTVSS
chain 2: DIQMTQSPSSLSSSVGDRVTITCQASQDIINNLNWYQQKPGKAPKLLIYDASNLETGVPSRFSGSGSGTDFTFTISSLQPEDIATYYCQQYDNLPFTFGPGTKLDIK

What follows are binders tested against SARS-CoV-2 Omicron BA.1 spike pseudovirus (assay: pseudovirus neutralization IC50; higher = weaker neutralization).
Experimental: (§1)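 Single-round VSV luciferase pseudovirus mixed with antibody dilutions for 1 h and put on Huh-7 cells for about a day; IC50 from the dose curve.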

Row | Binder | pseudovirus neutralization IC50
1 | B1 | 0.00238 µg/mL
2 | B2 | > 10 µg/mL
3 | B3 | 1.83 µg/mL
4 | B4 | 1.75 µg/mL
5 | B5 | 0.0979 µg/mL
6 | B6 | > 10 µg/mL
7 | B7 | 0.00174 µg/mL
8 | B8 | 0.216 µg/mL
9 | B9 | 1.57 µg/mL
10 | B10 | 0.0299 µg/mL

These binders were tested against SARS-CoV-2 Omicron BA.2 spike pseudovirus in the same assay as above.
Experimental: as §1

Row | Binder | pseudovirus neutralization IC50
11 | B1 | 0.00335 µg/mL
12 | B2 | 0.157 µg/mL
13 | B3 | 0.25 µg/mL
14 | B4 | 0.0116 µg/mL
15 | B5 | 2 µg/mL
16 | B6 | 0.48 µg/mL
17 | B7 | 0.00206 µg/mL
18 | B8 | 0.41 µg/mL
19 | B9 | 0.00146 µg/mL
20 | B10 | 0.0193 µg/mL

These binders were tested against SARS-CoV-2 Omicron BA.2.75 spike pseudovirus in the same assay as above.
Experimental: as §1

Row | Binder | pseudovirus neutralization IC50
21 | B1 | 0.696 µg/mL
22 | B2 | > 10 µg/mL
23 | B3 | 0.91 µg/mL
24 | B4 | 0.0276 µg/mL
25 | B5 | > 10 µg/mL
26 | B6 | 0.0556 µg/mL
27 | B7 | 0.00856 µg/mL
28 | B8 | > 10 µg/mL
29 | B9 | > 10 µg/mL
30 | B10 | > 10 µg/mL

The binders below were run against SARS-CoV-2 Omicron BA.2.75.2 spike pseudovirus in the same assay as above.
Experimental: as §1

Row | Binder | pseudovirus neutralization IC50
31 | B1 | > 10 µg/mL
32 | B2 | > 10 µg/mL
33 | B3 | 0.886 µg/mL
34 | B4 | > 10 µg/mL
35 | B5 | > 10 µg/mL
36 | B6 | 0.115 µg/mL
37 | B7 | > 10 µg/mL
38 | B8 | > 10 µg/mL
39 | B9 | > 10 µg/mL
40 | B10 | > 10 µg/mL

What follows are binders tested against SARS-CoV-2 Omicron BA.5 spike pseudovirus in the same assay as above.
Experimental: as §1

Row | Binder | pseudovirus neutralization IC50
41 | B1 | 0.545 µg/mL
42 | B2 | > 10 µg/mL
43 | B3 | 0.228 µg/mL
44 | B4 | 0.0254 µg/mL
45 | B5 | > 10 µg/mL
46 | B6 | > 10 µg/mL
47 | B7 | > 10 µg/mL
48 | B8 | > 10 µg/mL
49 | B9 | > 10 µg/mL
50 | B10 | 0.193 µg/mL

Each binder was assayed against SARS-CoV-2 Omicron BM.1.1.1 spike pseudovirus in the same assay as above.
Experimental: as §1

Row | Binder | pseudovirus neutralization IC50
51 | B1 | > 10 µg/mL
52 | B2 | > 10 µg/mL
53 | B3 | 0.742 µg/mL
54 | B4 | > 10 µg/mL
55 | B5 | > 10 µg/mL
56 | B6 | 0.125 µg/mL
57 | B7 | > 10 µg/mL
58 | B8 | > 10 µg/mL
59 | B9 | > 10 µg/mL
60 | B10 | > 10 µg/mL

These binders were tested against SARS-CoV-2 Omicron BQ.1.1 spike pseudovirus in the same assay as above.
Experimental: as §1

Row | Binder | pseudovirus neutralization IC50
61 | B1 | > 10 µg/mL
62 | B2 | > 10 µg/mL
63 | B3 | 0.943 µg/mL
64 | B4 | > 10 µg/mL
65 | B5 | > 10 µg/mL
66 | B6 | > 10 µg/mL
67 | B7 | > 10 µg/mL
68 | B8 | > 10 µg/mL
69 | B9 | > 10 µg/mL
70 | B10 | > 10 µg/mL

What follows are binders tested against SARS-CoV-2 Omicron BR.2 spike pseudovirus in the same assay as above.
Experimental: as §1

Row | Binder | pseudovirus neutralization IC50
71 | B1 | 1.79 µg/mL
72 | B2 | > 10 µg/mL
73 | B3 | 1.16 µg/mL
74 | B4 | > 10 µg/mL
75 | B5 | > 10 µg/mL
76 | B6 | 0.0504 µg/mL
77 | B7 | > 10 µg/mL
78 | B8 | > 10 µg/mL
79 | B9 | > 10 µg/mL
80 | B10 | > 10 µg/mL

The binders below were run against SARS-CoV-2 Omicron CA.1 spike pseudovirus in the same assay as above.
Experimental: as §1

Row | Binder | pseudovirus neutralization IC50
81 | B1 | > 10 µg/mL
82 | B2 | > 10 µg/mL
83 | B3 | 0.601 µg/mL
84 | B4 | > 10 µg/mL
85 | B5 | > 10 µg/mL
86 | B6 | 0.129 µg/mL
87 | B7 | > 10 µg/mL
88 | B8 | > 10 µg/mL
89 | B9 | > 10 µg/mL
90 | B10 | > 10 µg/mL

These binders were tested against SARS-CoV-2 Omicron XBB spike pseudovirus in the same assay as above.
Experimental: as §1

Row | Binder | pseudovirus neutralization IC50
91 | B1 | > 10 µg/mL
92 | B2 | > 10 µg/mL
93 | B3 | 1.17 µg/mL
94 | B4 | > 10 µg/mL
95 | B5 | > 10 µg/mL
96 | B6 | > 10 µg/mL
97 | B7 | > 10 µg/mL
98 | B8 | > 10 µg/mL
99 | B9 | > 10 µg/mL
100 | B10 | > 10 µg/mL

These binders were tested against SARS-CoV-2 early D614G spike pseudovirus in the same assay as above.
Experimental: as §1

Row | Binder | pseudovirus neutralization IC50
101 | B1 | > 10 µg/mL
102 | B2 | > 10 µg/mL
103 | B3 | > 10 µg/mL
104 | B4 | > 10 µg/mL
105 | B5 | > 10 µg/mL
106 | B6 | > 10 µg/mL
107 | B7 | > 10 µg/mL
108 | B8 | > 10 µg/mL
109 | B9 | > 10 µg/mL
110 | B10 | > 10 µg/mL

— the supplement of paper PMC9931576
